Anti-infective test results gathered from many reports (values: NIAID ChemDB through PubChem).

Shared fields: whole-cell or culture tests; agent: Aspergillus fumigatus; read-out: MIC

Blank or dashed fields: not listed here.

smiles	strain	method	conditions	result
CC[C@@H]1OC(=O)[C@H](C)C(=O)C(O)(CO)C/C(SC)=C/[C@@H](C)Cc2cccc1c2	TIMM1776			>64 µg/mL
CC(=O)Oc1cc(Cl)ccc1C(=O)Nc1ccc(C(F)(F)F)cc1	231			7.81 µg/mL
COc1ccc(N2C(=O)CC(c3c(C)nn(-c4cccc(Cl)c4)c3Cl)C3=C2CC(C)(C)CC3=O)cc1	MTCC 3008	broth dilution		1000 µg/mL
N#Cc1ccc(Nc2nc(Oc3cccc4cccnc34)nc(N3CCCCC3)n2)cc1C(F)(F)F	MTCC 343	agar		50 µg/mL
C=C1/C=C(\C)[C@H](CC)OC(=O)[C@H](C)C(=O)C(O)(CO)C/C(C)=C/[C@@H](C)C1	MF5668			200 µg/mL
Cc1ccc(-n2nc(C)c(C3CC(=O)N(c4ccc(F)cc4)C4=C3C(=O)CC(C)(C)C4)c2Cl)cc1	MTCC 3008	broth dilution		500 µg/mL
CCS(=O)(=O)C(F)(F)C(O)(Cn1cncn1)c1ccc(F)cc1F	IFM 40808			2 µg/mL
C[C@H]1[C@H](O)[C@@H](C)/C=C/C=C/C=C/C=C/C=C/C=C/C=C/[C@H](O[C@@H]2O[C@H](C)[C@@H](O)[C@H](N)[C@@H]2O)C[C@@H]2O[C@](O)(C[C@@H](O)C[C@@H](O)CC[C@H](O)[C@@H](O)C[C@@H](O)CC(=O)O[C@H]1C)C[C@H](O)[C@H]2C(=O)O	48238			0.13 µg/mL
CCCCCCCCC[C@@H]1CC(=O)NCC(=O)N[C@@H](CCCN)C(=O)N[C@@H](C(C)C)C(=O)N1	TIMM0063			>32 µg/mL
Cc1nn(-c2ccccc2)c(Cl)c1C1CC(=O)N(c2ccc(F)cc2)C2=C1C(=O)CCC2	MTCC 3008	broth dilution		1000 µg/mL
COc1cc(O)c2c(c1)C(=O)c1c(cc3c(c1O)-c1c(cc(C)c(C(=O)NC(C)C(=O)O)c1O)[C@H](OC1OC(C)C(N(C)C(=O)C(CO)(CO)CO)C(OC4OCC(O)C(O)C4O)C1O)[C@H]3O)C2=O	IAM2034			>100 µg/mL
N#Cc1ccc(Nc2nc(Oc3cccc4cccnc34)nc(N3CCOCC3)n2)cc1C(F)(F)F	MTCC 343	agar		50 µg/mL
C[C@H]1[C@H](O)[C@@H](C)/C=C/C=C/C=C/C=C/C=C/C=C/C=C/[C@H](O[C@@H]2O[C@H](C)[C@@H](O)[C@H](N)[C@@H]2O)C[C@@H]2O[C@](O)(C[C@@H](O)C[C@@H](O)CC[C@H](O)[C@@H](O)C[C@@H](O)CC(=O)O[C@H]1C)C[C@H](O)[C@H]2C(=O)O	7544	broth dilution		4 µg/mL
CCCCCCCCC[C@@H]1CC(=O)NCC(=O)N[C@@H](CCCCNCCC)C(=O)N[C@@H](C(C)C)C(=O)N1	TIMM0063			>128 µg/mL
COc1cc(O)c2c(c1)C(=O)c1c(cc3c(c1O)-c1c(cc(C)c(C(=O)NC(C)C(=O)O)c1O)[C@H](OC1OC(C)C(N(CC(=O)O)CC(=O)O)C(OC4OCC(O)C(O)C4O)C1O)[C@H]3O)C2=O	IAM2034			>100 µg/mL
CCCCCCCCC[C@@H]1CC(=O)NCC(=O)N[C@@H](CCCCN)C(=O)N[C@@H](CCCCN)C(=O)N1	TIMM0063			>128 µg/mL
CC(=O)Oc1c(Cl)cccc1C(=O)Nc1ccc(C(F)(F)F)cc1	231			3.91 µg/mL
CCCCCCCCC[C@@H]1CC(=O)NCC(=O)N[C@@H](CCCCN)C(=O)N[C@@H](CCC(=O)O)C(=O)N1	TIMM0063			>128 µg/mL
COc1ccc(N2C(=O)CC(c3c(C)nn(-c4ccccc4)c3Cl)C3=C2CC(C)(C)CC3=O)cc1	MTCC 3008	broth dilution		1000 µg/mL
Oc1ccc(CCN=C=S)cc1	Rit 11	visual reading		4 µg/mL
CN[C@@H]1[C@H](O[C@@H]2OC[C@@H](O)[C@H](O)[C@H]2O)[C@@H](O)[C@H](O[C@H]2c3cc(C)c(C(=O)NCC(=O)O)c(O)c3-c3c(cc4c(c3O)C(=O)c3cc(OC)cc(O)c3C4=O)[C@@H]2O)O[C@@H]1CO	IAM2530			6.3 µg/mL
CC(=O)Oc1c(Cl)cccc1C(=O)Nc1ccc(Cl)c(Cl)c1	231			15.63 µg/mL
COc1cc(O)c2c(c1)C(=O)c1c(cc3c(c1O)-c1c(cc(C)c(C(=O)NC(C)C(=O)O)c1O)[C@H](OC1OC(C)C(N(C)C(=O)CCC(=O)O)C(OC4OCC(O)C(O)C4O)C1O)[C@H]3O)C2=O	IAM2034			>100 µg/mL
N#Cc1ccc(Nc2nc(Oc3cccc4cccnc34)nc(N3CCN(c4cccc(Cl)c4)CC3)n2)cc1C(F)(F)F	MTCC 343	agar		25 µg/mL
COc1ccc(N2C(=O)CC(c3c(C)nn(-c4ccc(C)cc4)c3Cl)C3=C2CCCC3=O)cc1	MTCC 3008	broth dilution		500 µg/mL
CC(=O)Oc1c(Cl)cccc1C(=O)Nc1ccc(Cl)cc1	231			15.63 µg/mL
CC(C(O)(Cn1cncn1)c1ccc(F)cc1F)S(C)(=O)=O	H11-20			40 µg/mL
CC(=O)Oc1c(Cl)cccc1C(=O)Nc1cccc(Cl)c1	231			15.63 µg/mL
CCC(C)n1ncn(-c2ccc(N3CCN(c4ccc(OC[C@H]5CO[C@](Cn6cncn6)(c6ccc(Cl)cc6Cl)O5)cc4)CC3)cc2)c1=O	NBRC 33022	broth dilution	48 h	2 µg/mL
Cc1ccc(-n2nc(C)c(C3CC(=O)N(c4ccc(F)cc4)C4=C3C(=O)CCC4)c2Cl)cc1	MTCC 3008	broth dilution		500 µg/mL
CCCCCCCCC[C@@H]1CC(=O)NCC(=O)N[C@@H](CCCCNC(C)=O)C(=O)N[C@@H](C(C)C)C(=O)N1	TIMM0063			>16 µg/mL
CCCCCCCC/C=C\CCCCCCCC(=O)N[C@H](C(=O)N1C[C@H](C)C[C@H]1C(=O)N[C@H](C(=O)N[C@@H](CCO)C(=O)N[C@@H](C)C=O)C(C)C)[C@@H](C)O	MF5668	broth dilution / visual reading		>32 µg/mL
COc1cc(O)c2c(c1)C(=O)c1c(cc3c(c1O)-c1c(cc(C)c(C(=O)NC(C)C(=O)O)c1O)[C@H](OC1OC(C)C(N(C)C=O)C(OC4OCC(O)C(O)C4O)C1O)[C@H]3O)C2=O	IAM2034			6.3 µg/mL
CC(C)c1cccc(-c2nc3[n+]([nH]2)CCN([C@H](C)[C@](O)(C[n+]2cnc[nH]2)c2ccc(F)cc2F)C3)c1	7544			32 µg/mL
C=C1CCN([C@H](C)[C@](O)(Cn2cncn2)c2ccc(F)cc2F)CC1	KA-01			0.2 µg/mL
O=C1C=CC[C@H](/C=C/c2ccccc2)O1		broth dilution		>100 µg/mL
Cc1ccc(C(C)C)c(O)c1	F07			0.16 µg/mL
N#Cc1ccc(Nc2nc(Oc3cccc4cccnc34)nc(N3CCN(c4ncccn4)CC3)n2)cc1C(F)(F)F	MTCC 343	agar		6.25 µg/mL
CCC(CC)n1ncn(-c2ccc(N3CCN(c4ccc(OC[C@@H]5CO[C@@](Cn6cncn6)(c6ccc(F)cc6F)C5)cc4)CC3)cc2)c1=O	H11-20			0.035 µg/mL
CCCCCCCCC[C@@H]1CC(=O)NCC(=O)N[C@@H](CCCCN)C(=O)N[C@@H](C(C)C)C(=O)N1	TIMM0063			>128 µg/mL

The last 3 rows once more:

smiles	strain	method	conditions	result
N#Cc1ccc(Nc2nc(Oc3cccc4cccnc34)nc(N3CCN(c4ncccn4)CC3)n2)cc1C(F)(F)F	MTCC 343	agar		6.25 µg/mL
CCC(CC)n1ncn(-c2ccc(N3CCN(c4ccc(OC[C@@H]5CO[C@@](Cn6cncn6)(c6ccc(F)cc6F)C5)cc4)CC3)cc2)c1=O	H11-20			0.035 µg/mL
CCCCCCCCC[C@@H]1CC(=O)NCC(=O)N[C@@H](CCCCN)C(=O)N[C@@H](C(C)C)C(=O)N1	TIMM0063			>128 µg/mL

Lines come from different laboratories, so protocols vary.